Compound potency records, mixed from different reports. Data source: NIAID ChemDB in PubChem.

Common to all: growth or infection tests

ECn is the concentration giving n% inhibition of infection, replication or growth. Fold resistance: result on the changed form divided by that on wild type. Percent inhibition refers to the dose given; in toxicity tests it is the harm to the cells. Blank or dashed fields: not listed here. Lines come from different laboratories, so protocols vary.

{"structure": "Cc1cn([C@H]2C[C@H](N=[N+]=[N-])[C@@H](CO)O2)c(=O)[nH]c1=O", "read by": "RT activity", "cells": "CEM", "organism": "HIV-1", "read-out": "inhibition", "strain": "LAV-Bru", "setting": "15 d", "dose": "5 µM", "value": "97%"}
{"structure": "O=C(O)P(=O)(O)O", "read by": "RT activity", "cells": "PBL", "organism": "HIV-1", "read-out": "inhibition", "strain": "IIIB", "setting": "21 d", "dose": "16 µM", "value": "59%"}
{"structure": "CC(C)c1nc(CN(C)C(=O)N[C@H](C(=O)N[C@@H](Cc2ccccc2)C[C@H](O)[C@H](Cc2ccccc2)NC(=O)OCc2cncs2)C(C)C)cs1", "read by": "p24", "cells": "MT-4", "organism": "HIV-1", "changes": "PR-D30N A71V", "read-out": "EC50", "strain": "NL4-3-P22 (PR D30N A71V)", "value": "<0.09 µM"}
{"structure": "c1cc(CN2CCCNCCNCCCNCC2)ccc1CN1CCCNCCNCCCNCC1", "read by": "p24", "cells": "PBMC", "organism": "HIV-1", "read-out": "inhibition", "strain": "CM1 CLADE C R5", "dose": "0.5 µM", "value": "0%"}
{"structure": "S=C(NCCc1cccs1)Nc1ccc(Br)cn1", "read by": "p24", "cells": "PBMC", "organism": "HIV-1", "read-out": "EC50", "strain": "A17 RT-Y181C NNRTI-resistant", "value": "0.77 µM"}
{"structure": "CC(C)Nc1cccnc1N1CCN(C(=O)c2cc3cc(N=CN(C)C)ccc3[nH]2)CC1", "cells": "MT-2", "organism": "HIV-1", "read-out": "inhibition", "strain": "LAV", "dose": "1 µM", "value": "93%"}
{"structure": "CC(C)[C@H](NC(=O)c1ccc2ccccc2n1)C(=O)N[C@@H](Cc1ccccc1)[C@H](O)CN1CC[C@@H](OCc2ccncc2)C[C@H]1C(=O)NC(C)(C)C", "read by": "p24", "cells": "PBMC", "organism": "HIV-1", "read-out": "inhibition", "strain": "VR1372", "dose": "0.014 µM", "value": "90%"}
{"structure": "CO[C@@H]1[C@@H](O)[C@@H](O)[C@H](O)[C@H](O)[C@H]1n1ccc(N)nc1=O", "read by": "cytopathic effect / MTT", "cells": "MT-4", "organism": "HIV-2", "read-out": "inhibition", "dose": "10 µg/mL", "value": "52.8%"}
{"structure": "Nc1ccn([C@H]2CC[C@@H](CO)O2)c(=O)n1", "read by": "virus yield", "cells": "CEM", "organism": "HIV-2", "read-out": "inhibition", "strain": "LAV-2", "dose": "0.001 µM", "value": "99.9%"}
{"structure": "O=C1N(Cc2ccc(CO)cc2)[C@H](Cc2ccccc2)[C@H](O)[C@@H](O)[C@@H](Cc2ccccc2)N1Cc1ccc(CO)cc1", "read by": "virus yield", "cells": "MT-2", "organism": "HIV-1", "read-out": "inhibition", "strain": "RF", "dose": "0.15 µM", "value": "90%"}
{"structure": "CO[C@@H]1[C@@H](O)[C@@H](O)[C@H](O)[C@H](O)[C@H]1n1cnc2c(N)ncnc21.O=C(O)/C=C/C(=O)O", "read by": "cytopathic effect / MTT", "cells": "MT-4", "organism": "HIV-2", "read-out": "inhibition", "dose": "10 µg/mL", "value": "44.2%"}
{"structure": "[B-]P(=O)([O-])CC[C@H]1O[C@@H](n2cc(C)c(=O)[nH]c2=O)C[C@@H]1N=[N+]=[N-]", "read by": "syncytia", "cells": "CEM", "organism": "HIV-2", "read-out": "inhibition", "strain": "ROD", "dose": "400 µM", "value": "0%"}
{"structure": "CO[C@@H]1[C@@H](O)[C@@H](O)[C@H](O)[C@H](O)[C@H]1n1cnc2c(N)ncnc21", "read by": "cytopathic effect / MTT", "cells": "MT-4", "organism": "HIV-2", "read-out": "inhibition", "dose": "10 µg/mL", "value": "44.5%"}
{"structure": "Cc1cn([C@H]2C[C@H](N=[N+]=[N-])[C@@H](COP(=O)(O)OC[C@H]3OC(O)[C@@H](O)[C@@H](O)[C@@H]3O)O2)c(=O)[nH]c1=O", "read by": "RT activity", "cells": "CEM", "organism": "HIV-1", "read-out": "inhibition", "strain": "LAV-Bru", "setting": "15 d", "dose": "25 µM", "value": "95%"}
{"structure": "O=C(O)P(=O)(O)O", "read by": "p24", "cells": "PBMC", "organism": "HIV-1", "read-out": "EC50", "strain": "8848 CLADE C CLADE C", "value": "17.3 µM"}
{"structure": "O=S(=O)(O)c1cc(N=C=S)ccc1CCc1ccc(N=C=S)cc1S(=O)(=O)O", "read by": "p24", "cells": "C8166", "organism": "HIV-1", "read-out": "inhibition", "strain": "RF", "dose": "50 µg/mL", "value": "41%"}
{"structure": "C#C[C@]1(CO)O[C@@H](n2cnc3c(N)nc(F)nc32)CC1O", "read by": "β-galactosidase / absorbance", "cells": "MAGIC-5A", "organism": "HIV-2", "changes": "K65R Q151M M184V", "read-out": "fold resistance", "strain": "ROD9", "value": "15"}

A second listing of 2 rows from above:

| structure | read by | cells | organism | changes | read-out | strain | setting | dose | value |
|---|---|---|---|---|---|---|---|---|---|
| Nc1ccn([C@H]2CC[C@@H](CO)O2)c(=O)n1 | virus yield | CEM | HIV-2 |  | inhibition | LAV-2 |  | 0.001 µM | 99.9% |
| [B-]P(=O)([O-])CC[C@H]1O[C@@H](n2cc(C)c(=O)[nH]c2=O)C[C@@H]1N=[N+]=[N-] | syncytia | CEM | HIV-2 |  | inhibition | ROD |  | 400 µM | 0% |